Assay results: patent US20110212235A1, “ANTIMICROBIAL SALT SOLUTIONS FOR CHEESE PROCESSING APPLICATIONS” (priority 2006, published 2011)

Assay: Taste test of blue cheese wheels brined with octanoic acid
Details: blue cheese wheels brined in brine with up to 250 ppm octanoic acid, cured about a month, taste tested

CCCCCCCC(=O)O [octanoic acid, octanoic (caprylic) acid]
effect on cheese flavor: No off flavors; also recorded: no detrimental effects on cheese flavor

“Also recorded” adds a separate entry of the source.
